Anti-infective test results gathered from many reports (values: NIAID ChemDB through PubChem).

Shared fields: whole-cell or culture tests; species: Staphylococcus aureus

Two numbers with a dash give a range or band.

{"SMILES": "O=C(Nc1cc(C(F)(F)F)cc(C(F)(F)F)c1)NN1CCOCC1", "strain or isolate": "MI273", "measure": "MIC", "value": ">300 µM"}
{"SMILES": "CCOC(=O)NC[C@H]1CN(c2ccc3c(c2)-n2cccc2COC3)C(=O)O1", "strain or isolate": "ATCC 33591 (MRSA)", "measure": "MIC", "value": "16 µg/mL"}
{"SMILES": "O=C(Nc1cccc(C2=NCCN2)c1)Nc1cccc(C2=NCCN2)c1", "strain or isolate": "MI273", "measure": "MIC", "value": "37 µM"}
{"SMILES": "O=C(CC(F)(F)F)NC[C@H]1CN(c2ccc3c(c2)-n2cccc2COC3)C(=O)O1", "strain or isolate": "ATCC 49951 (SMITH)", "measure": "MIC", "value": "8 µg/mL"}
{"SMILES": "CCC(=O)NC[C@H]1CN(c2ccc(C3CCS(=O)(=O)CC3)c(F)c2)C(=O)O1", "strain or isolate": "UC9213", "measure": "MIC", "value": "4 µg/mL"}
{"SMILES": "O=C1O[C@@H](COc2ccon2)CN1c1ccc(-n2ccnn2)c(F)c1", "strain or isolate": "078 (oxford)", "measure": "MIC", "value": "4 µg/mL"}
{"SMILES": "C=CC(=O)NC[C@H]1CN(c2ccc3c(c2)-n2cccc2COC3)C(=O)O1", "strain or isolate": "ATCC 29213 (MSSA)", "measure": "MIC", "value": "2 µg/mL"}
{"SMILES": "NCCCCCNc1cc2c(cc1F)c(=O)c(C(=O)O)cn2-c1ccc(F)cc1F", "strain or isolate": "ATCC 6538P", "measure": "MIC", "value": "3.1 µg/mL"}
{"SMILES": "O=C(NNC(=O)Nc1cc(C(F)(F)F)cc(C(F)(F)F)c1)Nc1ccccc1", "strain or isolate": "MI273", "measure": "MIC", "value": ">200 µM"}
{"SMILES": "CC(=O)NC[C@H]1CN(c2ccc3c(c2)OCc2nccn2-3)C(=O)O1", "strain or isolate": "133", "measure": "MIC", "value": "0.25 µg/mL"}
{"SMILES": "CS(=O)(=O)NC1CCN(c2ccc(N3C[C@H](COc4ccon4)OC3=O)cc2F)CC1", "strain or isolate": "004 (methicillin quinolone-resistant)", "measure": "MIC", "value": "8 µg/mL"}
{"SMILES": "C=C1COC2[C@@H](C)C(=O)[C@H](C)C[C@@](C)(OC1)[C@H](O[C@@H]1O[C@H](C)C[C@H](N(C)C)[C@H]1O)[C@@H](C)C(=O)[C@@H](C)C(=O)O[C@H](CC)[C@@]2(C)O", "strain or isolate": "33591 (erythromycin methicillin-resistant)", "measure": "MIC", "value": ">64 µg/mL"}
{"SMILES": "N=Cc1cn(-c2ccc(N3C[C@H](COc4ccon4)OC3=O)cc2F)cn1", "strain or isolate": "078 (oxford)", "measure": "MIC", "value": "0.5 µg/mL"}
{"SMILES": "CCCC[C@H](CC(=O)NO)C(=O)N1CCC[C@H]1C(=O)NC", "strain or isolate": "3 strains", "measure": "MIC", "value": "2–8 µg/mL"}
{"SMILES": "O=C(NC[C@H]1CN(c2ccc3c(c2)-n2cccc2COC3)C(=O)O1)c1ccccc1", "strain or isolate": "ATCC 33591 (MRSA)", "measure": "MIC", "value": ">32 µg/mL"}
{"SMILES": "CN1CCN(c2cc3c(cc2F)c(=O)c(C(=O)O)cn3C2CC2)CC1", "strain or isolate": "ATCC 6538P", "measure": "MIC", "value": "0.78 µg/mL"}
{"SMILES": "CO/N=C1\\CN(c2nc3c(cc2F)c(=O)c(C(=O)O)cn3C2CC2)CC1CN", "strain or isolate": "KU2246", "measure": "MIC", "value": "0.125 µg/mL"}
{"SMILES": "CCCCCCCC[N+](C)(C)COC1CCCCCCCCCCC1", "strain or isolate": "ATCC33592", "measure": "MIC", "value": "2.56 µM"}
{"SMILES": "COC(=S)NC[C@H]1CN(c2ccc3c(c2)-n2cccc2COC3)C(=O)O1", "strain or isolate": "ATCC 29213 (MSSA)", "measure": "MIC", "value": "0.5 µg/mL"}
{"SMILES": "O=C1O[C@@H](COc2ccon2)CN1c1ccc(-n2ccnc2)c(F)c1", "strain or isolate": "004 (methicillin quinolone-resistant)", "measure": "MIC", "value": "1 µg/mL"}
{"SMILES": "NCCCCCCCCNc1cc2c(cc1F)c(=O)c(C(=O)O)cn2C1CC1", "strain or isolate": "ATCC 5278 (methicillin-resistant)", "measure": "MIC", "value": ">100 µg/mL"}
{"SMILES": "O=C(NNC(=O)NC1CCCCC1)Nc1cc(C(F)(F)F)cc(C(F)(F)F)c1", "strain or isolate": "MI273", "measure": "MIC", "value": "100 µM"}
{"SMILES": "CCCCCCCCCCCC[N+](C)(C)CSCCCC", "strain or isolate": "ATCC 6538", "measure": "MIC", "value": "2.84 µM"}
{"SMILES": "O=C(CC(=O)Nc1cc(C(F)(F)F)cc(C(F)(F)F)c1)Nc1cccc(C2=NCCN2)c1", "strain or isolate": "MI273", "measure": "MIC", "value": "75 µM"}
{"SMILES": "CCCCC(CO)Nc1cc2c(cc1F)c(=O)c(C(=O)O)cn2C1CC1", "strain or isolate": "ATCC 5278 (methicillin-resistant)", "measure": "MIC", "value": ">100 µg/mL"}
{"SMILES": "C=CC(=O)NC[C@H]1CN(c2ccc(C3CCS(=O)(=O)CC3)c(F)c2)C(=O)O1", "strain or isolate": "UC 12673", "measure": "MIC", "value": "2 µg/mL"}
{"SMILES": "NCCNc1cc2c(cc1F)c(=O)c(C(=O)O)cn2-c1ccc(F)cc1F", "strain or isolate": "ATCC 6538P", "measure": "MIC", "value": "0.78 µg/mL"}
{"SMILES": "CCCCCCCCCCCCSC[N+](C)(C)CCCCCCCCCCCC", "strain or isolate": "ATCC33592", "measure": "MIC", "value": "10.8 µM"}
{"SMILES": "CN(C)CC(C)(C)CNc1cc2c(cc1F)c(=O)c(C(=O)O)cn2C1CC1", "strain or isolate": "ATCC 6538P", "measure": "MIC", "value": ">100 µg/mL"}
{"SMILES": "CC[C@H]1OC(=O)[C@H](C)C(=O)[C@H](C)[C@@H](O[C@@H]2O[C@H](C)C[C@H](N(C)C)[C@H]2O)[C@@]2(C)C[C@@H](C)C(=O)[C@H](C)C(OC/C=C/CO2)[C@]1(C)O", "strain or isolate": "27660 (erythromycin-resistant)", "measure": "MIC", "value": "2 µg/mL"}
{"SMILES": "O=C(NC[C@H]1CN(c2ccc3c(c2)-n2cccc2COC3)C(=O)O1)OCc1ccccc1", "strain or isolate": "ATCC 29213 (MSSA)", "measure": "MIC", "value": ">32 µg/mL"}
{"SMILES": "CCCCCCCCCCCC[N+](C)(C)COC(C)CCC", "strain or isolate": "ATCC33592", "measure": "MIC", "value": "7.14 µM"}
{"SMILES": "CC(=S)NC[C@H]1CN(c2ccc3c(c2)-n2cccc2COC3)C(=O)O1", "strain or isolate": "ATCC 29213 (MSSA)", "measure": "MIC", "value": "1 µg/mL"}
{"SMILES": "CCCCCCCC[N+](C)(C)COC(C)CCC", "strain or isolate": "ATCC33592", "measure": "MBC", "value": "17 µM"}
{"SMILES": "O=C(NNc1ccccn1)Nc1cc(C(F)(F)F)cc(C(F)(F)F)c1", "strain or isolate": "MI273", "measure": "MIC", "value": ">300 µM"}

For reference, 5 entries again:

SMILES	strain or isolate	measure	value
NCCCCCNc1cc2c(cc1F)c(=O)c(C(=O)O)cn2-c1ccc(F)cc1F	ATCC 6538P	MIC	3.1 µg/mL
O=C(CC(F)(F)F)NC[C@H]1CN(c2ccc3c(c2)-n2cccc2COC3)C(=O)O1	ATCC 49951 (SMITH)	MIC	8 µg/mL
O=C(CC(=O)Nc1cc(C(F)(F)F)cc(C(F)(F)F)c1)Nc1cccc(C2=NCCN2)c1	MI273	MIC	75 µM
C=C1COC2[C@@H](C)C(=O)[C@H](C)C[C@@](C)(OC1)[C@H](O[C@@H]1O[C@H](C)C[C@H](N(C)C)[C@H]1O)[C@@H](C)C(=O)[C@@H](C)C(=O)O[C@H](CC)[C@@]2(C)O	33591 (erythromycin methicillin-resistant)	MIC	>64 µg/mL
CCCC[C@H](CC(=O)NO)C(=O)N1CCC[C@H]1C(=O)NC	3 strains	MIC	2–8 µg/mL

Lines come from different laboratories, so protocols vary.